Pooled drug test results. Numbers come from NIAID ChemDB, via PubChem.

All rows: whole-cell or culture tests; agent: Hepatitis C virus; endpoint: EC90

ECn: concentration that inhibits the pathogen or its effect by n%.

compound	strain	cells	read by	setting	value
N#Cc1c(C(=O)Nc2ccccc2)nn(-c2ccccc2)c1-n1cccc1	Con1 (gt 1b)	Huh 5-2	luciferase / replicon		>241 µM
COc1c(C(C)(C)C)cc(-c2ccc[nH]c2=O)c2ncc(-c3ccc(NS(C)(=O)=O)cc3)cc12	GT-1b Con1	Huh7	replicon	40% human serum	0.029 µM
CCOC(=O)[C@H](C)NP(=O)(OC[C@H]1O[C@@H](n2ccc3c(N)nc(N)nc32)[C@](C)(F)[C@@H]1O)Oc1ccccc1		CEM	replicon		>10 µM
CC1CCC(C(=O)N(c2cc(C#CC(C)(C)C)sc2C(=O)O)C2CCC(O)CC2)CC1	1b	Huh7			0.012 µM
C[C@@H](NC(=O)C(=O)C(CC1CC1)NC(=O)[C@@H]1C2[C@H](CN1C(=O)[C@@H](NC(=O)NC(C(=O)O)C(C)(C)C)C(C)(C)C)C2(C)C)c1ccccc1			replicon		3.5 µM
CCC[C@H](NC(=O)[C@@H]1[C@H]2CCC[C@H]2CN1C(=O)[C@@H](NC(=O)[C@@H](NC(=O)c1cnccn1)C1CCCCC1)C(C)(C)C)C(=O)C(=O)NC1CC1	1b	Huh7			1.8 µM
CC(C)[C@H](NC(=O)N[C@H](C(=O)N1C[C@H]2C([C@H]1C(=O)NC(CC1CC1)C(=O)C(N)=O)C2(C)C)C(C)(C)C)C(=O)C(C)(C)C	1		replicon		2 µM
COC(=O)C1=C(C(=O)OC)C2N(C)c3ccc(OC)cc3[C@@]23C[C@@H](C(=O)OC)N(C(=O)CC(C)C)C3=N1		Huh7.5	PCR		92.8 µM
O=C(Nc1ccccc1)c1cc(-n2cccc2)n(-c2ccc(Cl)cc2)n1	Con1 (gt 1b)	Huh 5-2	luciferase / replicon		>206.7 µM
COC(=O)N[C@H](C(=O)N1CCC[C@H]1c1ncc(-c2ccc(-c3cnc([C@@H]4CCCN4C(=O)[C@@H](NC(=O)OC)C(C)C)[nH]3)cc2)[nH]1)C(C)C	1b replicon	Huh7	replicon		0.001 µM
COc1nc(N)nc2c1ncn2[C@@H]1O[C@H](CO[P@](=O)(N[C@@H](C)C(=O)OCC(C)(C)C)Oc2cccc3ccccc23)[C@@H](O)[C@@]1(C)O	H77	Huh7	luciferase		0.004 µM
NC(=S)N/N=C/c1ccc(Br)cc1F		Huh7 ET	luciferase / reporter gene / replicon		5.93 µM
C[C@@]1(F)[C@H](O)[C@@H](CO)O[C@H]1n1ccc(N)nc1=O	S282T mutant		replicon / PCR		23.8 µM
CC(C)CC(NC(=O)N[C@H](C(=O)N1C[C@H]2C([C@H]1C(=O)NC(CC1CC1)C(=O)C(=O)NCC(=O)N[C@H](C(=O)N(C)C)c1ccccc1)C2(C)C)C(C)(C)C)C(=O)OCc1ccccc1			replicon		3.1 µM
CC(C)(C)OC(=O)N1CCN([C@@H](c2ccccc2C(F)(F)F)[C@@H](c2ccccc2C(F)(F)F)n2cc(Cn3cnc(=N)c4[nH]cnc43)nn2)CC1			absorbance		0.5 µM
COC(=O)N[C@@H](CC(C)C)C(=O)N1CCC[C@@H]1c1ncc(-c2ccc(-c3ccccc3)cc2)[nH]1	1b	Huh7	replicon		>1 µM
CC(C)(C)C(=O)OCOP(=O)(CC[C@H]1O[C@@H](n2cnc3c(=O)[nH]c(N)nc32)[C@](C)(F)[C@@H]1O)OCOC(=O)C(C)(C)C		Huh7	PCR		>10 µM
C[C@@]1(F)[C@H](O)[C@@H](CO)O[C@H]1n1cc(I)c2c(N)ncnc21		CEM	replicon		>10 µM
O=c1ccc2nnn3c2n1[C@@H]1O[C@H](C3)[C@@H](O)[C@H]1O		Huh7	replicon		70 µM
CC(C)CC(NC(=O)N[C@H](C(=O)N1C[C@H]2C([C@H]1C(=O)NC(CC1CC1)C(=O)C(N)=O)C2(C)C)C(C)(C)C)C(=O)OCc1ccccc1			replicon		0.5 µM
O=C(N[C@@H](C(=O)N1CCC[C@H]1c1ncc(-c2ccc(-c3ccc(-c4cnc([C@@H]5CCCN5C(=O)[C@H](NC(=O)C5CC5)c5ccccc5)s4)cc3)cc2)s1)c1ccccc1)C1CC1	genotype 1b	Huh7.5	luciferase / reporter gene		0.0000042 µM
C#Cc1cn([C@H]2O[C@H](CO)[C@@H](O)[C@@]2(C)F)c2ncnc(N)c12		CEM	replicon		>10 µM
Cc1cc2c(cc1F)c(C#N)c(-c1ccc(S(=O)(=O)N[C@@H](C)C(F)(F)F)cn1)n2-c1ncccn1	1b		PCR		0.025 µM
O=c1nc(NO)ccn1[C@@H]1O[C@H](CO)[C@@H](O)[C@H]1F		Huh7	replicon		>100 µM
O=c1ccn([C@@H]2O[C@H](CO)[C@@H](O)[C@H]2F)c(=O)[nH]1		MDBK	replicon		>100 µM
Nc1ncnc2c1ncn2[C@H]1O[C@H](CO)[C@@H](F)[C@@H]1F		Huh7	replicon		>10 µM
COc1ncnc2c1ccn2[C@@H]1O[C@H](CO)[C@@H](O)[C@@]1(C)F		CEM	replicon		>10 µM
COC(=O)c1ncn(C/C=C2/OC(=O)C(OCc3ccccc3)=C2OCc2ccccc2)n1	1b	Huh 5-2	luciferase / replicon		>100 µg/mL
C=Cc1cn([C@@H]2O[C@H](CO)[C@@H](O)[C@@]2(C)F)c2ncnc(N)c12		CEM	replicon		>10 µM
Clc1ncnc2c1ncn2C1C[C@H]2C[C@@H]1[C@H]1CSC[C@@H]21	1b	Huh	replicon		>17 µM
C=CCN1c2ccccc2[C@]23CC(=O)N(Cc4ccccc4)C2=NC(C(=O)OC)=C(C(=O)OC)C13		Huh7.5	PCR		33.9 µM

Repeating the final 3 entries:

compound	strain	cells	read by	setting	value
C=Cc1cn([C@@H]2O[C@H](CO)[C@@H](O)[C@@]2(C)F)c2ncnc(N)c12		CEM	replicon		>10 µM
Clc1ncnc2c1ncn2C1C[C@H]2C[C@@H]1[C@H]1CSC[C@@H]21	1b	Huh	replicon		>17 µM
C=CCN1c2ccccc2[C@]23CC(=O)N(Cc4ccccc4)C2=NC(C(=O)OC)=C(C(=O)OC)C13		Huh7.5	PCR		33.9 µM

Neighbouring rows are from separate reports. An empty or dashed field is not shown.